Consider one sequence from PMC4760761.

In the data set the target is T1, CodY-6His (UniProt A0A0H3GGF1).
T1 sequence (looked up, limits assumed): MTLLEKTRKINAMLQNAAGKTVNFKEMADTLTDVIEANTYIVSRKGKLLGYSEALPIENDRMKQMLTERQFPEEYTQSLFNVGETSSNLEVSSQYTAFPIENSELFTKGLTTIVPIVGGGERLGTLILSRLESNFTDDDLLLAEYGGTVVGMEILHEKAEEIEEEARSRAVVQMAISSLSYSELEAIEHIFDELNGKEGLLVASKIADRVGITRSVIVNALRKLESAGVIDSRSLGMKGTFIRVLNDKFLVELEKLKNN
Briefly: EMSA. The settings on record: 10 mM BCAA, apparent Kd; EMSA: 20 mM Tris-Cl pH 8, 50 mM KCl, 2 mM MgCl2, 0.5 mM EDTA, 1 mM DTT, 0.05% NP-40, 5% glycerol, 25 ug/ml salmon sperm DNA, 4 ng DIG-DNA, 15 min room temperature; recombinant protein; protein details: 6xHis; label: DIG; probe letters rebuilt from the primers and the genome. On the technique in general: A gel shift assay detects complexes by their altered migration in electrophoresis.

Construct, isoform or probe ends are uncertain for at least one entry. Tags and fusion partners may be left off the protein sequences shown.

On to “ACAATCACATATCTCTCTATCCTATAGTATTATTGATTTTCTGTTTATTTTTATAATAACAATATATGTTAGTTGTGTAAAGGGAACGCGAGTAGGTCAAAAGGATTGGGTATGAAGAACCTTTTTTTGAGTTAAATAGAAAAATATAAATCGAATAATGAGAAGTTTTCCTTTGATACAGCTGTTACACTGGCTGTTTTTTTATTTTTACACACAATTTCATTTTTTAAAAAAAGTATAGATTTTTTCTGGATTTGGTGTAAAATTTTATATTGCAGTTACAAAAAACACTTTATTGATATATATTTTGAAAAAATGATTTATTTTTGTAATCTGATGAAGGGAGTGAAAGGTGAATTTACCTTACTTGAATGGAATATTTTTTGTCACTTTTAAAAATTATTGTACTTTTGGCAGTACTTGCGGGAATTTCTTATTTTTTAGTTAAGAAAAACAAGCAAGCGAATCGCACGAGAAAAAGCGAAAATGATCTAATAAAG (double strand) [fliN (LMRG_02874) upstream probe]”, for which the Kd was determined as 26 nM.
